Assay results as given in patent US11395816B2, “Corroles for treating human cytomegalovirus infections” (UNIVERSITE DE BOURGOGNE, priority 2017, dated 2022).
The index is printed as in the source, without its formula.

Tested on: hCMV
Experiment: hCMV infection assay in ARPE-19 cells (infection level and DNA replication by high content microscopy)
Type: cell-based, human cytomegalovirus
Method: ARPE-19 human retinal pigmented epithelium cells were used for hCMV infection assay.
Cells were grown in DMEM without phenol red (Sigma-Aldrich) 10% SVF, Pen-strep, 1× sodium pyruvate, 1× Glutamax.
hCMV infection was carried out on ARPE-19 cells seeded in 96 wells plate, in duplicate at one or two MOI (multiplicity of infection) and 7 concentrations of FNO2Cor, TPFCor, TpNO2Cor. • D0: MRC5/ARPE-19 cells seeded at 6 k per well in Corning Glass Bottom 96 well plates in 200 μL of DMEM without phenol red. • D1: cells were treated with FNO2Cor, TpNO2Cor, TPFCor (from 50 to 0.1 μM by two fold dilutions) in duplicate for the toxicity study. • D3: ARPE-19 cells were treated with Ganciclovir, FNO2Cor, TpNO2Cor, TPFCor (from 5 to 0.07 μM or from 10 to 0.15 μM by two fold dilutions) and were infected at different MOI in duplicate: MOI 10 or 2 for ARPE-19 cells. • D7: ARPE-19 cells at MOI 10 4 d post-infection were fixed with Formalin 10 min at room temperature. Cells were washed with 200 μL PBS and 100 μL PBS/Hoechst® 33342 ( 1/1000) per well. 96 well plates were kept at 4° C. in the dark until data acquisition Image acquisition and analysis for high content quantification was performed on a Thermo Cellomics Arrayscan™ VTI microscope using a modified compartmental analysis algorithm. • D13: ARPE19 cells at MOI 2 10 days post-infection were fixed and image acquisition and analysis were performed as previously described.
On 4 d and 10 d post-infection (2 post-infection times), data acquisition per virus and cell line was done by high content microscopy to calculate infection level and DNA replication according to compound concentration.
Compounds FNO2Cor, TPFCor, TpNO2Cor and anti-hCMV drug Ganciclovir were assessed at 8 different concentrations in ARPE-19 cell culture on 4 days post-infection (FIGS. 2A, 2B) or on 10 days post-infection (FIGS. 3A, 3B) to evaluate their activity for inhibiting hCMV infection and their capacity for inhibiting hCMV replication in ARPE-19 cells.

SMILES: O=[N+]([O-])c1ccc(-c2c3nc(c4ccc([nH]4)c(-c4ccc([N+](=O)[O-])cc4)c4ccc([nH]4)c(-c4ccc([N+](=O)[O-])cc4)c4ccc2[nH]4)C=C3)cc1 [TpNO2Cor, 5,10,15-Tris(4-nitrophenyl)corrole, reference compound]
- Selectivity index (infection inhibition) (4 d PI, Table III): 6.28
- Selectivity index (replication inhibition) (4 d PI, Table III): 3.0
- Selectivity index (infection inhibition) (Table V, head prints 4 d PI, text says 10 d PI): 13.93
